Screening data, single-dose tests

A: 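Phenotypic screen: M. tuberculosis growth, glucose 7H9 medium, 3 days; the read-out is not stated. Concentration: 50 µM. Direction is inferred from retests: higher values go with more growth inhibition. Size under these conditions: about 69,000 compounds, about 760 of them at 50% or above in at least one test.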
B: 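Whole-cell growth test on Mycobacterium tuberculosis, read after 4 days in a medium based on cholesterol and the lipid DPPC; the read-out is not stated. Concentration: 50 µM. The record gives no direction; compounds that gave an IC50 in retests scored well above the rest, so higher reads as more growth inhibition. Size under these conditions: about 69,000 compounds, about 370 of them at 50% or above in at least one test.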

Values are the deposited “Percent Effect”, in %.
The record does not define 0% and 100%; most values in the screen are far below 50% and negative numbers occur (in some assays of this library far below -100).
This is part of a subset picked to be rich in strong results.
Two or more numbers in one place are separate tests of the same structure; such repeats can differ widely.

Result for FC1(F)CCNCC12CCN(c1ncccn1)C2 (stereo not shown) was B: 51.6%. With O=C(O)C(F)(F)F.[H][C@@]12CN(CC(C)C)C[C@]1([H])C(=O)N(C)C21CCN(C(=O)C(C)C)CC1 the screen gave B: 0.667%. Result for CN(Cc1ccccc1)CC(O)Cn1cnc2sccc2c1=O (stereo not shown) was A: 12.42%. With Cc1nc(NCc2cccnc2)c2c(n1)c(C)nn2C the screen gave A: -24.14%; B: -2.31%.

CC(=O)N(C)Cc1cccc(NC(=O)c2cnn(C)c2C)c1 gave B: -33.02%. For CC1(c2ccccc2)CCCN(Cc2nnc(-c3cccnc3)o2)C1 (stereo not shown) the result was A: 51.81%. Cc1nnn2c1COC(CNC(=O)c1cccn1C)C2 (stereo not shown) gave A: -2.173%. CCc1cc(N(C)Cc2ccnc(C)c2)n2nc(C)c(C)c2n1 read A: -8.359%; B: -2.654%.

CC1CCCCN1C(=O)c1coc(COc2cccc3cnccc23)n1 (stereo not shown) read A: 53.99% & 52.8%; B: 42.34% & 56%. With COc1cccc2c3c(c(=O)n(C)c12)CCC(C)(C)O3 the screen gave A: 12.49% & 59.56%. Result for Cc1ccc(OCC(=O)NCc2ccccc2F)nc1 was A: 12.3%; B: 1.706%. Result for CC(=O)c1ccccc1NC(=O)CCN1CCSCC1 was A: -7.621%.

CCCOc1cc(CNC(=O)Nc2cccc(C(C)=O)c2)ccn1 gave A: 27.97%; B: 13.51%. CN1CCCCC1c1ncc2c(n1)CCN(Cc1ccc(F)cc1)C2 (stereo not shown) gave A: 41.44%. O=C(NCCNc1ccccn1)NCC1CCS(=O)(=O)C1 (stereo not shown) read A: -34.69% & -7.742%. CC(C)COc1ccccc1C(N)CC(C)C (stereo not shown) read A: 37.44% & 2.642%; B: 18.36%.

For CNS(=O)(=O)CCNc1cc(C)nc2cc(C)nn12 the result was A: 6.683%; B: -0.1804%. Cc1nnc(CN(C)C(=O)C(CC(C)C)N2CCCCC2=O)n1C (stereo not shown) gave B: 14.37%. COCC(=O)NC(c1ccc(Cl)cc1)C(F)(F)F (stereo not shown) read A: 50.34% & 19.03%. For Cl.O=c1c2sccc2nc2n1CCN(Cc1ccccc1C(F)(F)F)CC2 the result was A: 28.7%; B: 120.3%.

For CC(C)c1cc(C(=O)N2CCN(Cc3ccco3)CC2)n[nH]1 the result was A: 14.24% & -62.52%. For CCc1ccc(CN2CCOC(Cc3cccc(F)c3)C2)nc1 (stereo not shown) the result was A: 50.41%; B: 52.3%. With CN(Cc1ccc(-n2cccn2)cc1)C(=O)CCC(F)(F)F the screen gave A: 19.92%. CCn1cc(CNc2ccc(N(C)CCOC)cn2)cn1 gave A: -68.44%; B: -21.51%.

CCCc1nc(N2CCCCCC2)c2c(n1)c(C)nn2CC read A: 24.41% & 68.07%.

Some entries from above, unchanged:

{"compound": "CC(=O)c1ccccc1NC(=O)CCN1CCSCC1", "A": -7.621}
{"compound": "CC(C)COc1ccccc1C(N)CC(C)C", "stereo": "stereo not shown", "A": "37.44 & 2.642", "B": 18.36}
{"compound": "Cc1nc(NCc2cccnc2)c2c(n1)c(C)nn2C", "A": -24.14, "B": -2.31}

Source: ChEMBL document CHEMBL3988442, “University of Dundee, Small-Polar-MMV Screening Library” (2021).